Experimental data from patent US9102607B2 (priority 2009, dated 2015).
In brackets after ≈: the same amount, converted by molar mass.

tested on: P. acnes CIP53.117; conditions: P. acnes CIP53.117, Wilkins-Chalgren broth, 36° C., anaerobic, at least 72 h

Compound	MIC [µg/mL]
CC(C)(C)OC(=O)Oc1ccccc1C(=O)OOC(=O)c1ccccc1OC(=O)OC(C)(C)C	160 (≈ 337 µM)
O=C(OOC(=O)c1ccccc1OC(=O)C1CCCCC1)c1ccccc1	320 (≈ 869 µM)
O=C(Oc1ccccc1C(=O)OOC(=O)c1ccccc1OC(=O)OC1CCCCC1)OC1CCCCC1	320 (≈ 608 µM)
